The text below walks through data of patent US10962529B1 (priority 2020, dated 2021).

This data set deals with SARS-COV-2 live virus (protease). Kind of data set: Real-time fluorescence kinetics and detection limit of FRET substrate with live virus. The format is biochemical.

Like-named read-outs stand apart in the source and are kept apart here.

On to FITC-Ahx-H-d-K(Dabcyl), for which the “Limit of detection (LOD), 3SD/m from calibration plot” value (shortened to “Limit of detection (LOD), 3SD/m”) came to 9±3 pfu/ml. The “Limit of detection (LOD), 3SD/m” value (listed as FITC-Ahx-H-d-(Dabcyl)) was 9±3 pfu/ml. Moreover, where the note is “listed as H-d”, the “Limit of detection (LOD), 3SD/m” value is 9.7±3 pfu/ml.
